Assay [1] concerns peripheral blood lymphocytes of healthy candidates. As to the kind of experiment: Spontaneous cytokine secretion, cytometric bead array, healthy candidates. The note with it: healthy candidates (n=3), 200 μg/10^6 cells, 2 days (FIG. 8).
Assay [2] relates to peripheral blood lymphocytes (PBMC). As to the kind of experiment: Intracellular IFNγ and IL-4 production after SEB stimulation (flow cytometry). Particulars: SEB stimulated. The assay is classed as cell-based, human. (In general: Flow cytometry measures light scatter and fluorescence of single cells or particles in a stream.)
Assay [3] has as its system peripheral blood lymphocytes from patients with severe psoriasis vulgaris. Description: Spontaneous cytokine secretion, cytometric bead array, patients with psoriasis vulgaris. The note with it: patients with psoriasis vulgaris (n=3), 200 μg/10^6 cells, 2 days (FIG. 10).
Assay [4] relates to peripheral blood lymphocytes (PBMC).

In the case of QEEDFLTLH, in assay [1], the “Spontaneous production of TNFα” value is recorded as “inhibits TNFα more strongly”; the “Synthesis of IL-4” value is recorded as “induces the synthesis of Th2 cytokines (IL-4, IL-5, IL-10)”; the “Synthesis of IL-5” value is on record as “induces the synthesis of Th2 cytokines (IL-4, IL-5, IL-10)”; the “Synthesis of IL-10” value is listed as “induces the synthesis of Th2 cytokines (IL-4, IL-5, IL-10)”.

QELDYLTRH: in assay [2] (healthy candidates (FIG. 7C)), the “Ratio between IFNγ and IL-4 (IFNγ+ Th1 cells to IL-4+ Th2 cells)” value is given as “modified by the peptides as a function of the dosage in favour of the IL-4 producing Th2 lymphocytes”. Also, in assay [2] (lymphocytes of healthy candidates, different peptide concentrations (FIG. 7A)), the “Intracellular IFNγ production” value is recorded as “suppresses the production of IFNγ, a cytokine which mediates a number of immunological functions, more strongly than P2 as a function of the dosage”. Moreover, the “Intracellular IL-4 production” value in assay [2] (lymphocytes of healthy candidates, different peptide concentrations (FIG. 7B)) is on record as “is stimulated as a function of the dosage”. Further, in assay [3], the IL-5 synthesis result was “substantial stimulation of the IL-10 and IL-5 synthesis”; the IL-10 synthesis entry is “substantial stimulation of the IL-10 and IL-5 synthesis”. Moreover, in assay [4] (co-stimulation with SEB+peptide (FIG. 6B)), the “Effect on SEB-induced proliferation” value was “modified substantially neither by the peptides alone (FIG. 6A) nor the co-stimulation with SEB+peptide P1”. Further, in assay [4] (dose-effect curve 10-200 μg peptide, high concentrations (FIG. 6B)), the “Inhibition of the SEB-induced lymphocyte proliferation” value was “occurred only in high concentrations”. In assay [4] (peptides alone, different concentrations, 2 days, healthy donors (FIG. 6A)), the “Effect on proliferation of lymphocytes” value is on record as “did not bring to light any significant effects”. Also, in assay [1], the “Spontaneous production of IFNγ” value was “inhibits above all the spontaneous production of the Th1 cytokines IL-2 and IFNγ”; the “Spontaneous production of IL-2” value is “inhibits above all the spontaneous production of the Th1 cytokines IL-2 and IFNγ”; the “Synthesis of IL-4” value was “completely inhibits also the synthesis of IL-4 and IL-5”; the “Synthesis of IL-5” value is “completely inhibits also the synthesis of IL-4 and IL-5”.
